The target of this test is whole virus influenza neuraminidase, A/NWS/34-tern/Australia/G70C/75(H1N9) (Influenza A virus, UniProt P03472). The conditions noted are these: read-out: inhibition constants (IC50), NWS/G70C, calculated on molecular weight per unit of attached GG167 derivative.

As to “GG167-Bovine Serum Albumin-Biotin conjugate”, the IC50 was 7 nM.

Source of the values: US6680054B1 (priority 1996, dated 2004).
